Test results taken from patent publication EP2961753B1, “STANNOUS FLUORESCENT PROBE” (priority 2014, dated 2015).

Test system: Streptococcus mutans (ATCC® 700610™)
Assay: Fluorescence imaging of Sn^2+ in bacteria (confocal laser scanning microscopy)
Format: cell-based

`CCN(CC)c1ccc2c(c1)Oc1cc(N(CC)CC)ccc1C21c2ccccc2C(=O)N1NC(=O)OC(C)(C)C` [Compound R2] was tested, and the “fluorescence emission without Sn^2+ present” value (Streptococcus mutans stained with 10µM probe at 37° C for 60 min) was “no fluorescence emission”, the “change of fluorescence after incubation with Sn^2+” value (Streptococcus mutans, probe for 60 min at 37° C, then 50 µM Sn^2+ under the same conditions) was “significant fluorescence increasing” and the “localization of fluorescence signals (overlay of fluorescence and brightfield images)” value (Streptococcus mutans, probe then 50 µM Sn^2+) was “localized in the Streptococcus mutans”.
